Results reported in publication PMC9447362.

System: P4 G4 (P4-WT RNA)
Assay: CD spectra and CD melting of P4-WT with G4-specific ligands
Format: binding, SARS-CoV-2
Settings: P4-WT 1.0 μM, ligand 1.0 μM
Procedure: For CD spectra and CD melting experiments, the DNA or RNA oligonucleotide samples pre-heated at 95 °C for 10 min were slowly cooled to room temperature, and then were incubated at 4 °C for 24 h. The samples were detected by JASCO J-810 spectropolarimeter equipped with a temperature-controlled water bath. In CD melting experiments, versus temperatures were collected at a heating rate of 1 °C/min.

| SMILES | CD peak position of P4 G4 in the presence of ligand |
| --- | --- |
| NCCOc1cc(C(=O)Nc2cc(OCCN3CCCC3)c3ccccc3n2)nc(C(=O)Nc2cc(OCCN3CCCC3)c3ccccc3n2)c1 [PDP] | unchanged |
| C[n+]1ccccc1-c1c2nc(c(-c3cccc[n+]3C)c3ccc([nH]3)c(-c3cccc[n+]3C)c3ccc([nH]3)c(-c3cccc[n+]3C)c3nc1C=C3)C=C2 [TMPyP2] | unchanged |
| C[n+]1ccc(-c2c3nc(c(-c4cc[n+](C)cc4)c4ccc([nH]4)c(-c4cc[n+](C)cc4)c4nc(c(-c5cc[n+](C)cc5)c5ccc2[nH]5)C=C4)C=C3)cc1 [TMPyP4, 5,10,15,20-tetrakis-(N-methyl-4-pyridyl)porphine] | unchanged |
